Measured values from several laboratories, pooled; numbers as filed in NIAID ChemDB.

All rows: whole-cell or culture tests; organism: Mycobacterium tuberculosis

MIC bound: limit read from a one-dose screen.

compound,strain or isolate,method,endpoint,tested at,value
COc1ccc(CO/N=C2/CCN(c3c(F)cc4c(=O)c(C(=O)O)cn(C5CC5)c4c3OC)CC2N)cc1,H37Rv,resazurin,MIC,-,4 µg/mL
Cn1cccc2nc(CC(=O)NN)nc1-2,109,-,MIC,-,250 µg/mL
CCCCCCC/C=C\C(O)C#CC#CC(O)CC,Erdman,resazurin,MIC90,-,49.5 µg/mL
CC(C(N)=S)c1nc2ncccc2[nH]1,193,-,MIC,-,125 µg/mL
COC(=O)c1nc(N)nc(C(=O)OC)c1C(=O)c1ccncc1,H37Rv,BACTEC,MIC bound,-,>12.5 µg/mL
CCCCCCCCCCOCCCCOP(=O)(O)C[C@@H]1O[C@H](CO)[C@@H](O)[C@@H]1O,H37Rv,-,MIC,-,>3.13 µg/mL
Nc1ccccc1NC(=S)C(=O)Nc1ccc2ccccc2c1,H37Rv,-,MIC,-,333 µM
COc1cccc(CO/N=C2/CCN(c3c(F)cc4c(=O)c(C(=O)O)cn(C5CC5)c4c3OC)CC2N)c1OC,H37Rv,resazurin,MIC,-,8 µg/mL
Oc1ccccc1/C=N/Nc1ccc2ccccc2n1,H37Rv,BACTEC,inhibition,12.5 µg/mL,82%
CC(C)=CCC[C@@H](C)c1ccc(C)cc1O,H37Rv,-,MIC,-,16 µg/mL
OC1c2ccccc2-c2ccccc2C1O,H37Rv,resazurin,inhibition,6.25 µg/mL,-4%
Cc1ccc([C@H]2SCC(=O)N2c2nc(N3CCOCC3)n[nH]2)cc1,H37Rv,resazurin,MIC,-,3.13 µg/mL
Cc1c(N2C[C@@H]3CCCN[C@@H]3C2)c(F)cn2c(=O)c(C(=O)O)cc(C3CC3)c12,ATCC35838,-,MIC,-,0.031 µg/mL
C=CC(O)C#CC#CC(O)/C=C\CCCCCCC,H37Rv,resazurin,MIC90,-,26.7 µg/mL
COc1ccc([C@H]2SC(C)C(=O)N2c2nc(N3CCOCC3)n[nH]2)cc1OC,H37Rv,resazurin,MIC,-,16 µg/mL
C[C@@H]1CN(c2nc3c(cc2F)c(=O)c(C(=O)O)cn3C(C)(C)C)C[C@H](C)N1,H37Rv,-,MIC,-,0.78 µg/mL
C/C(=C\Cc1ccccc1O)CCC[C@H](C)CCC[C@H](C)CCCC(C)C,H37Rv,-,MIC,-,32 µg/mL
CCCCCCCCCCCCOCCCCOP(=O)(O)C[C@@H]1O[C@H](CO)[C@@H](O)[C@@H]1O,H37Rv,-,MIC,-,>3.13 µg/mL
CO[C@H]1[C@@H](O)c2coc3c2[C@](C)(c2ccc4c(c2C3=O)CCC4=O)[C@H]1O,H37Rv,BACTEC,inhibition,12.5 µg/mL,17%
Cc1c(CN2CCN(C)CC2)cc(-c2ccccc2F)n1-c1cccc2ccccc12,-,-,MIC,-,4 µg/mL
CN[C@@H]1[C@H](O[C@H]2[C@H](O[C@H]3[C@H](O)[C@@H](O)[C@H](N=C(N)N)[C@@H](O)[C@@H]3N=C(N)N)O[C@@H](C)[C@]2(O)C=O)O[C@@H](CO)[C@H](O)[C@H]1O,TN758 (P),-,MIC,-,>2 µg/mL
O=C1CS[C@H](c2ccc3c(c2)OCO3)N1c1nc(N2CCOCC2)n[nH]1,H37Rv,resazurin,MIC,-,<1 µg/mL
CC1CN(c2nc3c(cc2F)c(=O)c(C(=O)O)cn3C(C)(C)C)CCN1,H37Rv,-,MIC,-,0.78 µg/mL
CCCc1[nH]n(-c2ccccc2)c(=O)c1N=Nc1ccc(Cl)cc1,H37Rv,BACTEC,inhibition,12.8 µg/mL,-16%
CN1/C(=C/C(=O)NN)N(C)c2ncccc21,H37Rv,-,MIC,-,500 µg/mL
Nc1nc(Sc2ccc([N+](=O)[O-])c3nonc23)c2ncn([C@@H]3O[C@H](CO)[C@@H](O)[C@H]3O)c2n1,H37Rv,resazurin,MIC bound,-,>6.25 µg/mL
Nc1ccc(NC(=S)C(=O)Nc2ccccc2)cc1,H37Rv,-,MIC,-,222 µM
COc1c(N2CC/C(=N/OCc3ccc(Cl)cc3)C(N)C2)c(F)cc2c(=O)c(C(=O)O)cn(C3CC3)c12,H37Rv,resazurin,MIC,-,0.125 µg/mL
c1ccc(C(CNCCNCC23CC4CC(CC(C4)C2)C3)c2ccccc2)cc1,H37Rv,-,MIC,-,1 µM
C=C1C(=O)O[C@@H]2C[C@@]3(C)CCCC(=C)[C@@H]3C[C@H]12,H37Rv,-,MIC,-,32 µg/mL
Cc1c(CN2CCSCC2)cc(-c2ccc(Cl)cc2)n1-c1ccc(F)cc1,-,-,MIC,-,1 µg/mL
CCC1CCC2CN(/N=C/c3c4c(O)c5c(O)c(C)c6c(c5c3O)C(=O)[C@@](C)(O/C=C/[C@H](OC)[C@@H](C)[C@@H](OC(C)=O)[C@H](C)[C@H](O)[C@H](C)[C@@H](O)[C@@H](C)/C=C/C=C(/C)C(=O)N4)O6)CCN2C1,H37Rv,-,MIC,-,0.03 µg/mL
COc1cc(CO/N=C2/CCN(c3c(F)cc4c(=O)c(C(=O)O)cn(C5CC5)c4c3OC)CC2N)cc(OC)c1,H37Rv,resazurin,MIC,-,16 µg/mL
COc1ccc(Nc2ncnc3c(=N)n(NC(=O)c4ccncc4)cnc23)cc1,H37Rv,-,EC90,-,4.22 µg/mL
CC1(C)[C@H]2CC[C@@H](CNCCNCCC(c3ccccc3)c3ccccc3)[C@@H]1C2,H37Rv,-,MIC,-,1 µM
NC(=O)C(=S)Nc1ccccc1N,H37Rv,-,MIC,-,111 µM
CO[C@H]1/C=C/O[C@@]2(C)Oc3c(C)c(O)c4c(O)c(c(/C=N/N5CCN(C)CC5)c(O)c4c3C2=O)NC(=O)/C(C)=C\C=C\[C@H](C)[C@H](O)[C@@H](C)[C@@H](O)[C@@H](C)[C@H](OC(C)=O)[C@@H]1C,10 isolates,-,MIC,-,0.06–0.24 µg/mL
CCC(CO)NCCNC1CCCC1,H37Rv,-,MIC,-,150 µM
CCOC(=O)[C@@H](N)CSCC,H37Rv,-,MIC,-,>100 µg/mL
Cc1ccc(S(=O)(=O)N/C(=C/C=C/c2ccccc2)C(=O)C(C)(C)C)cc1,H37Rv,BACTEC,MIC bound,-,>12.5 µg/mL
Cc1c(CN2CCN(C)CC2)cc(-c2cccc3ccccc23)n1-c1ccccc1,-,-,MIC,-,>16 µg/mL
Cc1nc(C(N)=O)c(=O)[nH]c1C,H37Rv,BACTEC,inhibition,12.5 µg/mL,-5%
CCC(CO)NCCNC(CC)CO,H37Rv,-,MIC,-,37.5 µM
CCSC(=O)c1ccccc1,H37Rv,-,MIC,-,>100 µg/mL
O=C(Cc1nc2cc(Cl)c(Cl)cc2nc1CC(=O)c1cccnc1)c1cccnc1,H37Rv,BACTEC,inhibition,6.25 µg/mL,23%
COc1ccc([C@H]2SC(C)C(=O)N2c2nc(N3CCN(C)CC3)n[nH]2)cc1OC,H37Rv,resazurin,MIC,-,8 µg/mL
C=C1CC[C@@H]2[C@](C)(CO)[C@H](O)CC[C@@]2(C)[C@@H]1C/C=C1/C(=O)OC[C@H]1O,H37Rv,BACTEC,inhibition,12.5 µg/mL,27%
COc1ccc(Nc2ncnc3c(=N)n(NC(C)=O)cnc23)cc1,H37Rv,-,EC90,-,>100 µg/mL
O=c1c(O)c(-c2ccc(O)cc2O)oc2cc(O)cc(O)c12,H37Rv,BACTEC,inhibition,128 µg/mL,63%
Cc1ccc(/C=C(\C(N)=S)c2nc3cccnc3n2C)c(C)c1,H37Rv,-,MIC,-,31.2 µg/mL
Cc1c(CN2CCSCC2)cc(-c2ccc(F)cc2)n1-c1ccccc1F,H37Rv,-,MIC,-,2 µg/mL
COC(=O)[C@H](CCC=C(C)C)[C@H]1[C@@H]2[C@H](C[C@]3(C)C4=CC[C@H]5C(C)(C)C(=O)CC[C@]5(C)C4CC[C@@]23C)O[C@@H]1O,H37Rv,-,MIC,-,16 µg/mL
CCCCCCCCCOCCCCOP(=O)(O)C[C@@H]1O[C@H](CO)[C@@H](O)[C@@H]1O,H37Rv,-,MIC,-,>3.13 µg/mL
CC1CN(c2cc3c(cc2F)c(=O)c(C(=O)O)cn3C(C)(C)C)CCN1,H37Rv,-,MIC,-,0.39 µg/mL
Cc1c(CN2CCSCC2)cc(-c2ccccc2)n1-c1ccccc1F,-,-,MIC,-,8 µg/mL
COc1cc(/C=C2\CC/C(=C\c3ccc(OCCCN4CCCC4)c(OC)c3)C2=O)ccc1OCCCN1CCCC1,H37Rv,visual reading,MIC99,-,25 µM
NC(=O)C(=S)Nc1ccc(N)cc1,H37Rv,-,MIC,-,1000 µM
[Na+].[O-]N=Nc1nc(-c2cccnc2)nc2ccccc12,H37Rv,BACTEC,inhibition,12.5 µg/mL,0%
CC1S[C@H](c2ccc3c(c2)OCO3)N(c2nc(N3CCOCC3)n[nH]2)C1=O,H37Rv,resazurin,MIC,-,4 µg/mL
CC(=O)NCC1CN(c2ccc(C(C)=O)cc2)C(=O)O1,10 isolates,-,MIC,-,1.5–2.5 µg/mL
CC1CN(c2c(F)cc3c(=O)c(C(=O)O)cn(C4CC4)c3c2Br)CCN1,H37Rv,-,MIC,-,0.78 µg/mL
CCCCN(CCO)CCNc1ccc(C)c2sc3ccccc3c(=O)c12,H37Rv,BACTEC,MIC,-,6.25 µg/mL
CCOc1cc(/C=C2\CC/C(=C\c3ccc(OCCCN4CCC(C)CC4)c(OCC)c3)C2=O)ccc1OCCCN1CCC(C)CC1,H37Rv,visual reading,MIC99,-,6.25 µM
CCSC(=O)c1ccco1,H37Rv,-,MIC,-,50 µg/mL
CO[C@H]1/C=C/O[C@@]2(C)Oc3c(C)c(O)c4c(=O)c(c5oc6cc(N7CCN(CC(C)C)CC7)cc(=O)c6nc5c4c3=C2O)NC(=O)/C(C)=C\C=C\[C@H](C)[C@H](O)[C@@H](C)[C@@H](O)[C@@H](C)[C@H](OC(C)=O)[C@@H]1C,H37RV-PLN-SIG,-,MIC,-,≤0.015 µg/mL
COc1cc(C2OCC3C(c4ccc(OC)c(OC5OC(CO)C(O)C(O)C5O)c4)OCC23)ccc1O,H37Rv,BACTEC,inhibition,12.5 µg/mL,0%
COc1ccccc1CO/N=C1/CCN(c2c(F)cc3c(=O)c(C(=O)O)cn(C4CC4)c3c2OC)CC1N,H37Rv,resazurin,MIC,-,8 µg/mL
Cc1c(CN2CCSCC2)cc(-c2ccccc2Cl)n1-c1ccccc1Cl,-,-,MIC,-,4 µg/mL
Cc1cccc(C)c1N/C(=N\Nc1c([N+](=O)[O-])cccc1[N+](=O)[O-])NC(=O)c1ccccc1C(=O)N/C(=N/Nc1c([N+](=O)[O-])cccc1[N+](=O)[O-])Nc1c(C)cccc1C,H37Rv,BACTEC,inhibition,12.5 µg/mL,71%
CC(C)=CCC/C(C)=C/CNCCNC(c1ccccc1)c1ccccc1,H37Rv,-,MIC,-,1 µM
CO[C@H]1/C=C/O[C@@]2(C)Oc3c(C)c(O)c4c(O)c(c(/C=N/N5CCN(C/C=C/c6ccccc6)CC5)c(O)c4c3C2=O)NC(=O)/C(C)=C\C=C\[C@H](C)[C@H](O)[C@@H](C)[C@@H](O)[C@@H](C)[C@H](OC(C)=O)[C@@H]1C,2230 (MDR),-,MIC,-,4 µg/mL
CCOc1cc(/C=C2\CC/C(=C\c3ccc(OCCCN4CCCCC4)c(OCC)c3)C2=O)ccc1OCCCN1CCCCC1,H37Rv,visual reading,MIC99,-,12.5–25 µM
N=c1c2ncnc(Nc3ccc(F)cc3)c2ncn1NC(=O)c1ccncc1,H37Rv,-,EC90,-,3.58 µg/mL
O=C1OC(CO)C(O)C2OC23C(=O)c2c(c(O)c(O)c(O)c2-c2c(O)c(O)c(O)c4c2C(=O)OC3C4O)-c2c1cc(O)c(O)c2O,H37Rv,BACTEC,MIC,-,≥12.5 µg/mL
CCC(S)CCO,H37Rv,-,MIC,-,>100 µg/mL
CCOc1ccc2ccc3cccnc3c2n1,H37Rv,BACTEC,MIC bound,-,>12.5 µg/mL
CN1CCN(c2c(F)cc3c(=O)c(C(=O)O)cn(CCF)c3c2F)CC1,-,-,MIC50,-,1.56 µg/mL
O=c1cc2[nH]c3ccccc3c(=O)n2[nH]1,H37Rv,-,MIC bound,-,>6.25 µg/mL
Cc1c(CN2CCN(C)CC2)cc(-c2ccccc2Cl)n1-c1ccccc1,-,-,MIC,-,>16 µg/mL
CCC(=S)CC1C(=O)NC(=S)N1C(C)=O,H37Rv,-,MIC,-,>100 µg/mL
COc1ccccc1/C=c1/[nH]c(=O)/c(=C\c2ccccc2OC)[nH]c1=O,H37Rv,BACTEC,inhibition,12.5 µg/mL,-30%
O=C(Nc1cccc2ccccc12)C(=S)Nc1ccccc1O,H37Rv,-,MIC,-,37 µM
Nc1cc(=O)[nH]c(C(=O)O)n1,H37Rv,BACTEC,inhibition,12.5 µg/mL,0%
NC[C@H]1OB2OCCOC3C=CC(c4cccs4)=C1C23,H37Rv,resazurin / fluorescence,MIC,-,>600 µM

Repeating the first 12 entries:

compound	strain or isolate	method	endpoint	tested at	value
COc1ccc(CO/N=C2/CCN(c3c(F)cc4c(=O)c(C(=O)O)cn(C5CC5)c4c3OC)CC2N)cc1	H37Rv	resazurin	MIC	-	4 µg/mL
Cn1cccc2nc(CC(=O)NN)nc1-2	109	-	MIC	-	250 µg/mL
CCCCCCC/C=C\C(O)C#CC#CC(O)CC	Erdman	resazurin	MIC90	-	49.5 µg/mL
CC(C(N)=S)c1nc2ncccc2[nH]1	193	-	MIC	-	125 µg/mL
COC(=O)c1nc(N)nc(C(=O)OC)c1C(=O)c1ccncc1	H37Rv	BACTEC	MIC bound	-	>12.5 µg/mL
CCCCCCCCCCOCCCCOP(=O)(O)C[C@@H]1O[C@H](CO)[C@@H](O)[C@@H]1O	H37Rv	-	MIC	-	>3.13 µg/mL
Nc1ccccc1NC(=S)C(=O)Nc1ccc2ccccc2c1	H37Rv	-	MIC	-	333 µM
COc1cccc(CO/N=C2/CCN(c3c(F)cc4c(=O)c(C(=O)O)cn(C5CC5)c4c3OC)CC2N)c1OC	H37Rv	resazurin	MIC	-	8 µg/mL
Oc1ccccc1/C=N/Nc1ccc2ccccc2n1	H37Rv	BACTEC	inhibition	12.5 µg/mL	82%
CC(C)=CCC[C@@H](C)c1ccc(C)cc1O	H37Rv	-	MIC	-	16 µg/mL
OC1c2ccccc2-c2ccccc2C1O	H37Rv	resazurin	inhibition	6.25 µg/mL	-4%
Cc1ccc([C@H]2SCC(=O)N2c2nc(N3CCOCC3)n[nH]2)cc1	H37Rv	resazurin	MIC	-	3.13 µg/mL

Blank or dashed fields: not listed here. ECn: concentration that inhibits the pathogen or its effect by n%. Rows are shuffled and stem from different studies. a–b is a range or a potency band. A number after MIC or MFC names an inhibition level or a share of isolates. Percent inhibition refers to the dose given; in toxicity tests it is the harm to the cells.